Measured values from several laboratories, pooled; numbers as filed in NIAID ChemDB.

Common to all: growth or infection tests; organism: HIV-1; read by: cytopathic effect / MTT; measure: inhibition

An empty or dashed field is not shown. Lines come from different laboratories, so protocols vary. Percent inhibition refers to the dose given; in toxicity tests it is the harm to the cells.

SMILES	cell line	mutations	strain or isolate	dose	value
CO[C@H]1[C@@H](O)[C@H](n2cnc3c(N)ncnc32)[C@@H](O)[C@H](O)[C@@H]1O	MT-4		IIIB	10 µg/mL	68.4%
N/C(=N/O)c1cccc(CN2C(=O)N[C@H](CCc3ccccc3)[C@@H](O)[C@H]2Cc2ccccc2)c1	MT-2		RF	0.37 µM	90%
CCCCCCCCCC(=O)O[C@@]12[C@H](OCOC)[C@@H](C)[C@@]3(O)[C@@H](C=C(CO)C[C@]4(O)C(=O)C(C)=C[C@@H]34)[C@@H]1C2(C)C	MT-4		IIIB	0.1 µg/mL	100%
Nc1nc(NC2CC2)c2ncn([C@H]3C=C[C@@H](CO)O3)c2n1	PBMC		BRU PITT WT	19 µM	90%
N[C@@H](CS)C(=O)O	CEM		IIIB	100 µM	47%
CCCCCCCCCC(=O)O[C@@]12[C@H](OC(C)=O)[C@@H](C)[C@@]3(O)[C@@H](C=C(CO)C[C@]4(O)C(=O)C(C)=C[C@@H]34)[C@@H]1C2(C)C	MT-4 + mouse plasma + MT-4		IIIB	0.1 µg/mL	60.2%
CN=C1CN=C(c2ccc[nH]2)c2cc(Cl)ccc2N1	MOLT-4		IIIB	1 µM	100%
O=c1[nH]cnc2c1ncn2[C@H]1CC[C@@H](CO)O1	MT-4		IIIB	7 µM	70%
Cc1cc(SC2=C(O)C[C@@](CCc3ccc(O)cc3)(C(C)C)OC2=O)c(C(C)(C)C)cc1CO	CEM		IIIB	1 µM	90%
CO[C@H]1[C@@H](O)[C@H](n2cnc3c(N)ncnc32)[C@@H](O)[C@H](O)[C@@H]1O.O=C(O)/C=C/C(=O)O	MT-4		IIIB	10 µg/mL	22.4%
O=C(O)P(=O)(O)O	H9		IIIB	8 µM	60%
Cc1cc(SC2=C(O)C[C@@](CCc3ccc(N)cc3)(C(C)C)OC2=O)c(C(C)(C)C)cc1CO	CEM		IIIB	1 µM	90%
CCOc1ccc(CSc2nc(Cc3c(Cl)cccc3Cl)c(C)c(=O)[nH]2)cc1	MT-4	RT-Y188L		11 µM	34%
Cc1ccnc2c1NC(=O)c1cccnc1N2C1CC1	MT-4	RT-K103N Y181C	A17	100 µM	25%
COc1ccc(CN[C@@H](C(=O)N[C@H](CO)c2ccccc2)[C@H](O)[C@H](Cc2ccccc2)NC(=O)OC(C)(C)C)cc1	MT-4		IIIB	3 µM	0%
CO[C@@H]1[C@@H](O)[C@@H](O)[C@H](O)[C@H](O)[C@H]1n1cnc2c(N)ncnc21	MT-4		IIIB	10 µg/mL	32.6%
CC(C)(C)OC(=O)N[C@@H](Cc1ccccc1)[C@@H](O)[C@@H](NCc1ccc(CNC(=O)Nc2ccccc2)cc1)C(=O)N[C@H]1c2ccccc2C[C@H]1O	MT-4		IIIB	3 µM	0%
Cc1cn([C@H]2C[C@H](N=[N+]=[N-])[C@@H](CO)O2)c(=O)[nH]c1=O	MT-4	RT-Y181C	IIIB-R (RT-Y181C)	0.0085 µM	90%
Cc1cn([C@H]2C=C[C@@H](CO)O2)c(=O)n(N)c1=O	CEM-C113 + CEM/C113		BRU	1 µM	40%
NCCSSCCN	CEM		IIIB	100 µM	100%
C1CNCCNCCCN[C@H]([C@@H]2CNCCCNCCNCCCN2)CNC1	MT-4		RF	0.87 µM	90%
COc1c(O)c(Cl)c2c(c1OC)-c1c(c(Cl)c(O)c(OC)c1OC)C[C@H](C)[C@H](C)C2	MT-4	RT-K103N Y181C	A17	20 µM	20%
C[C@H](NC(=O)[C@H](CCCN=C(N)N)NC(=O)c1ccc(CNCc2ccccn2)cc1)c1cccc2ccccc12	MT-4		IIIB X4 laboratory isolate	0.06 µM	~100%
OCCS	CEM		IIIB	100 µM	0%
COc1ccc(CN[C@@H](C(=O)N[C@H]2c3ccccc3C[C@H]2O)[C@H](O)[C@H](Cc2ccccc2)NC(=O)OC(C)(C)C)cc1	MT-4		IIIB	3 µM	0%
CO[C@H]1[C@@H](O)[C@H](n2ccc(N)nc2=O)[C@@H](O)[C@H](O)[C@@H]1O.O=C(O)/C=C/C(=O)O	MT-4		IIIB	10 µg/mL	36.6%